A mixed list of measured activities; the numbers were collected in NIAID ChemDB.

An empty or dashed field is not shown. MIC bound: limit read from a one-dose screen. Percent inhibition refers to the dose given; in toxicity tests it is the harm to the cells. ECn is the concentration giving n% inhibition of infection, replication or growth. ICn: concentration for n% inhibition. A number after MIC or MFC names an inhibition level or a share of isolates. Neighbouring rows are from separate reports.

compound | strain | endpoint | agent | cell line | protein | test | method | dose | result
Nc1nc(Cl)c(N=Nc2ccc(Cl)cc2)c(NCC2(CO)CC2)n1 | H37Rv | inhibition | Mycobacterium tuberculosis |  |  | culture | resazurin | 6.25 µg/mL | 19%
CCCCCCCC/C=C/CCCCCCCC(=O)Nc1nnc(NC2CCN(C(=O)OCC)CC2)s1 |  | IC50 | Human cytomegalovirus |  | Polymerase | target |  |  | <25 µM
Cc1ccc(NP2(Nc3ccc(C)cc3)=NP(Nc3ccc(C)cc3)(N3CC3)=NP(Nc3ccc(C)cc3)(N3CC3)=N2)cc1 | H37Rv | MIC bound | Mycobacterium tuberculosis |  |  | culture | BACTEC |  | ≤128 µg/mL
NS(=O)(=O)O | TYPE 3 | inhibition | Adenovirus | Human embryonic lung cells |  | culture | cytopathic effect | 5 µg/mL | 0%
Nc1ccc([N+](=O)[O-])cc1 | H37Rv | MIC | Mycobacterium tuberculosis |  |  | culture |  |  | >100 µg/mL
c1ccc(C2CCN(c3cncc(-c4ccc5ccccc5c4)n3)CC2)cc1 |  | IC50 | Cytomegalovirus |  | UL97 kinase | target |  |  | <10 µM
CCCCCCCCOCC(=O)O | H37Rv | MIC | Mycobacterium tuberculosis |  |  | culture |  |  | >100 µg/mL
CC(=O)c1ccc(-c2cncc(N3CCN(c4cccc(C)c4C)CC3)n2)s1 |  | inhibition | Cytomegalovirus |  | UL97 kinase | target |  | 10 µM | >15%
COc1ccc(CCC#N)c(O)c1 | H37Rv | MIC | Mycobacterium tuberculosis |  |  | culture |  |  | >100 µg/mL
O=C1C=C(Nc2ncn[nH]2)c2ccccc2C1=O | H37Rv | inhibition | Mycobacterium tuberculosis |  |  | culture |  | 6.25 µg/mL | 18%
C=CCc1ccc(OC)c(OC)c1 | 2356 | MIC90 | Candida tropicalis |  |  | culture | turbidity |  | 345 µg/mL
O=[N+]([O-])c1cccc2cccnc12 | H37Rv | MIC | Mycobacterium tuberculosis |  |  | culture |  |  | >100 µg/mL
Fc1ccccc1CCNCCNCC12CC3CC(CC(C3)C1)C2 |  | MIC | Mycobacterium tuberculosis |  |  | culture |  |  | 50 µM
Nc1ccc2c(O)cc(S(=O)(=O)[O-])cc2c1S(=O)(=O)[O-] | TYPE 3 | inhibition | Adenovirus | Human embryonic lung cells |  | culture | cytopathic effect | 5 µg/mL | 30%
Cc1ccc(C(=O)c2ccc(C)cc2)cc1 | H37Rv | MIC | Mycobacterium tuberculosis |  |  | culture |  |  | 100 µg/mL
Fc1ccc(N2CCCCC2)c(NC(=S)c2ccncc2)c1 |  | inhibition |  |  | HGK | host protein | kinase activity | 10 µM | 13.2%
COc1cc(NCCCN2C(=O)c3ccccc3C2=O)c2ncccc2c1 | H37Rv | MIC | Mycobacterium tuberculosis |  |  | culture |  |  | 100 µg/mL
c1ccc(CCCCNCCNCCCc2ccccc2)cc1 |  | MIC | Mycobacterium tuberculosis |  |  | culture |  |  | 25 µM
O=C(N/N=C/c1ccccc1)C(=O)N/N=C/c1ccccc1 | H37Rv | MIC bound | Mycobacterium tuberculosis |  |  | culture | resazurin |  | >6.25 µg/mL
CCO/N=C/c1ccc(OCCC2CCN(c3ccc(C)nn3)CC2)cc1 | FO2-3607 (sialoprotein receptor group 87) | EC50 | Rhinovirus | KB |  | culture | neutral red |  | 3.342 µM
Fc1ccc(N2CCN(c3cncc(-c4cccc(F)c4)n3)CC2)cc1 |  | IC50 | Cytomegalovirus |  | UL97 kinase | target |  |  | <100 µM
CCC(CC)O[C@@H]1C=C(C(=O)O)C[C@H](N)[C@H]1NC(C)=O | Influenza A/Shandong/09/93 (H3N2) | EC50 | Influenza A virus | MDCK |  | culture | visual reading |  | 0.04 µM
O=C(O)/C=C/c1cccc([N+](=O)[O-])c1 | H37Rv | MIC | Mycobacterium tuberculosis |  |  | culture |  |  | 50 µg/mL
CC(CNCCNCCC1=CCCCC1)c1ccccc1 |  | MIC | Mycobacterium tuberculosis |  |  | culture |  |  | 50 µM
O=C(O)c1ccc(O)c([N+](=O)[O-])c1 | H37Rv | MIC | Mycobacterium tuberculosis |  |  | culture |  |  | >100 µg/mL
O=C(Nc1nnc(NCc2cccc3ccccc23)s1)c1ccc(S(=O)(=O)F)cc1 |  | IC50 | Human cytomegalovirus |  | Polymerase | target |  |  | >25 µM
NC(CSCC(=O)O)C(=O)O | H37Rv | MIC | Mycobacterium tuberculosis |  |  | culture |  |  | >100 µg/mL
NNC(=O)c1csnn1 | H37Rv | inhibition | Mycobacterium tuberculosis |  |  | culture | BACTEC | 12.5 µg/mL | 18%
COc1cc(C[C@H](C)[C@H](C)Cc2ccc(O)c(O)c2)ccc1O | CCC 124-2000 | MIC80 | Candida parapsilosis |  |  | culture | broth dilution |  | 62.5 µg/mL
CN(C)c1ccc(/C=N/NC=O)c(Cl)c1 | H37Rv | inhibition | Mycobacterium tuberculosis |  |  | culture | BACTEC | 12.5 µg/mL | 17%
CC(C)c1cc(C(C)C)c(C(=O)Nc2nnc(NCc3cccs3)s2)c(C(C)C)c1 |  | IC50 | Human cytomegalovirus |  | Polymerase | target |  |  | >25 µM
CC(=O)OC[C@]12CCC(C)=CC1O[C@@H]1[C@H](OC(C)=O)[C@@H](OC(C)=O)[C@@]2(C)C12CO2 | H37Rv | MIC | Mycobacterium tuberculosis |  |  | culture | BACTEC |  | ≥12.5 µg/mL
c1ccc2c(SSc3cccc4ccccc34)cccc2c1 | H37Rv | MIC | Mycobacterium tuberculosis |  |  | culture |  |  | >100 µg/mL
Nc1c(S(=O)(=O)O)cc(S(=O)(=O)O)c2ccc(N=Nc3ccc(/C=C/c4ccc(N=Nc5ccc6c(S(=O)(=O)O)cc(S(=O)(=O)O)c(N)c6c5O)cc4S(=O)(=O)O)c(S(=O)(=O)O)c3)c(O)c12 | H37Rv | MIC bound | Mycobacterium tuberculosis |  |  | culture | resazurin |  | >6.25 µg/mL
O=C(Nc1ccc2c(O)c(N=Nc3ccc(N=Nc4ccc(S(=O)(=O)O)cc4)cc3)c(S(=O)(=O)O)cc2c1)c1ccccc1 | TYPE 3 | inhibition | Adenovirus | Human embryonic lung cells |  | culture | cytopathic effect | 5 µg/mL | 10%
O=C1CSCC(=O)OCCOCCSCCOCCO1 | H37Rv | MIC bound | Mycobacterium tuberculosis |  |  | culture | BACTEC |  | >12.5 µg/mL
Clc1ccc(-c2cncc(N3CCN(c4ccncc4)CC3)n2)cc1 |  | IC50 | Cytomegalovirus |  | UL97 kinase | target |  |  | <10 µM
O=C1c2ccccc2C(=O)N1CO | H37Rv | MIC | Mycobacterium tuberculosis |  |  | culture |  |  | >100 µg/mL
COC(=O)c1ccc(CSc2ccccc2NC(=S)Nc2cccc(SC)c2)o1 | H37Rv | MIC bound | Mycobacterium tuberculosis |  |  | culture | BACTEC |  | >12.5 µg/mL
CCCCOc1nc(N)nc(N(CC)CCO)n1 | H37Rv | MIC | Mycobacterium tuberculosis |  |  | culture |  |  | 100 µg/mL
C/C(=N/NC(=S)N1CCC(c2ccccc2)CC1)c1nccnc1C | TAC-R | MIC | Mycobacterium tuberculosis |  |  | culture |  |  | 3.1 µg/mL
O=C1CC(c2ccccc2)N1c1ccccc1 | H37Rv | MIC | Mycobacterium tuberculosis |  |  | culture |  |  | >100 µg/mL
CSc1ccc(-c2cncc(N3CCN(c4ccc(C(C)=O)cc4)CC3)n2)cc1 |  | IC50 | Cytomegalovirus |  | UL97 kinase | target |  |  | <1 µM
NS(=O)(=O)c1ccc(CNc2nnc(NC(=O)/C=C/c3ccccc3)s2)cc1 |  | IC50 | Human cytomegalovirus |  | Polymerase | target |  |  | <25 µM
O=C1CCCN1CCCNCCNCC(c1ccccc1)c1ccccc1 |  | MIC | Mycobacterium tuberculosis |  |  | culture |  |  | 25 µM
c1cncc(-c2cncc(N3CCN(c4cccc5[nH]ccc45)CC3)n2)c1 |  | inhibition | Cytomegalovirus |  | UL97 kinase | target |  | 1 µM | <50%
OC(c1ccccc1)c1ccccc1 | H37Rv | MIC | Mycobacterium tuberculosis |  |  | culture |  |  | 100 µg/mL
CCOc1ccc2ccccc2c1C(=O)Nc1nnc(NCC2CCCCC2)s1 |  | IC50 | Human cytomegalovirus |  | Polymerase | target |  |  | >25 µM
C(CNC12CC3CC(CC(C3)C1)C2)NCC12CC3CC(CC(C3)C1)C2 |  | MIC | Mycobacterium tuberculosis |  |  | culture |  |  | 18.8 µM
CC(=O)c1c(O)c(C)c(O)c2c1OC1=Cc3onc(C)c3C(=O)C12C | H37Rv | inhibition | Mycobacterium tuberculosis |  |  | culture | BACTEC | 12.5 µg/mL | -24%
CCCCCCCCCCCNc1nnc(NC(=O)c2cc3ccccc3s2)s1 |  | IC50 | Human cytomegalovirus |  | Polymerase | target |  |  | >25 µM
Cc1nn(C(=S)S)c(C)c1N=Nc1ccccc1C(F)(F)F | H37Rv | MIC bound | Mycobacterium tuberculosis |  |  | culture | resazurin |  | >6.25 µg/mL
Fc1ccc(CCNCCNCCc2ccc(Cl)cc2Cl)cc1 |  | MIC | Mycobacterium tuberculosis |  |  | culture |  |  | 25 µM
O=S(=O)([O-])c1ccc2c(NS(=O)(=O)c3ccccc3)cc(S(=O)(=O)[O-])cc2c1 | TYPE 3 | inhibition | Adenovirus | Human amnion AV3 cells |  | culture | cytopathic effect | 5 µg/mL | 0%
O=C(Nc1nnc(NCCCN2CCCC2=O)s1)c1ccc(S(=O)(=O)F)cc1 |  | IC50 | Human cytomegalovirus |  | Polymerase | target |  |  | >25 µM
C/C(=C/c1c(Br)cc(Br)c(N)c1Br)C(=O)O | H37Rv | MIC | Mycobacterium tuberculosis |  |  | culture |  |  | 100 µg/mL
COC(=O)CN1C(=O)OC(c2ccccc2)C1=O | H37Rv | inhibition | Mycobacterium tuberculosis |  |  | culture | BACTEC | 12.5 µg/mL | 0%
CC(C)=CCC/C(C)=C/CNCCNC[C@]1(C)CCC[C@]2(C)c3ccc(C(C)C)cc3CC[C@@H]12 |  | MIC | Mycobacterium tuberculosis |  |  | culture |  |  | 12.5 µM
O=C(Nc1c(S(=O)(=O)[O-])cc2cc(S(=O)(=O)[O-])cc(O)c2c1O)c1ccccc1 |  | inhibition | Rhinovirus | Human embryonic lung cells |  | culture | cytopathic effect | 10 µg/mL | 30%
CCOc1cccc(C(=O)O)c1 | H37Rv | MIC | Mycobacterium tuberculosis |  |  | culture |  |  | >100 µg/mL
C#CC[C@@H](C(=O)N[C@H](/C=C/C(=O)OCC)C[C@@H]1CCNC1=O)n1cccc(NC(=O)c2cc(C)on2)c1=O | Clinical isolate 15 (serotype 23) | EC50 | Rhinovirus | H1-HELA |  | culture | cytopathic effect / XTT |  | 0.059 µM
Br.CCN(CC)CCS(=O)(=O)CCCBr | H37Rv | MIC | Mycobacterium tuberculosis |  |  | culture |  |  | >100 µg/mL
CCOC(=O)c1c(C)[nH]c(-c2csc(C)n2)c1C | H37Rv | MIC bound | Mycobacterium tuberculosis |  |  | culture | BACTEC |  | >12.5 µg/mL
CC(=O)c1cccc(-c2cncc(N3CCN(c4cccc(C)c4C)CC3)n2)c1 |  | IC50 | Cytomegalovirus |  | UL97 kinase | target |  |  | <100 µM
c1ccc(CCCCNCCNC2CCCCCCC2)cc1 |  | MIC | Mycobacterium tuberculosis |  |  | culture |  |  | 25 µM
Fc1ccc(N2CCN(c3cncc(-c4ccc(C(F)(F)F)cc4)n3)CC2)c(F)c1 |  | IC50 | Cytomegalovirus |  | UL97 kinase | target |  |  | <10 µM
O=C(Nc1cc(S(=O)(=O)[O-])cc2cc(S(=O)(=O)[O-])ccc12)c1ccccc1 |  | inhibition | Herpes simplex virus | Human conjunctiva cells |  | culture | cytopathic effect | 10 µg/mL | 0%
COCNC(=S)c1ccc(C(N)=O)nc1C(=O)NC(C)(C)C | H37Rv | inhibition | Mycobacterium tuberculosis |  |  | culture | resazurin | 6.25 µg/mL | -16%
Cc1cc(C)c(S(=O)(=O)c2c(C)cc(C)c(N)c2C)c(C)c1N | H37Rv | MIC | Mycobacterium tuberculosis |  |  | culture |  |  | >100 µg/mL
CC(=O)N1c2ccccc2C2=NN(C)C(=N)SC21 | H37Rv | inhibition | Mycobacterium tuberculosis |  |  | culture | resazurin | 6.25 µg/mL | 34%
Cc1ccc(-c2cncc(N3CCN(c4ccc(C)cc4)CC3)n2)cc1 |  | IC50 | Cytomegalovirus |  | UL97 kinase | target |  |  | <100 µM
Nc1ccn([C@@H]2CO[C@H](CO)O2)c(=O)n1 | H37Rv | MIC bound | Mycobacterium tuberculosis |  |  | culture | BACTEC |  | >12.5 µg/mL
NC(=S)NC(=O)c1ccccc1 | H37Rv | MIC | Mycobacterium tuberculosis |  |  | culture |  |  | >100 µg/mL
COC(=O)[C@]1(C)CCC[C@]2(C)c3ccc(C(C)C)cc3C(=O)C[C@@H]12 | H37Rv | inhibition | Mycobacterium tuberculosis |  |  | culture | BACTEC | 12.5 µg/mL | 26%
Oc1ccc2nc3ccccc3nc2c1 | H37Rv | MIC | Mycobacterium tuberculosis |  |  | culture |  |  | >6.25 µg/mL

A second listing of 4 rows from above:

compound,strain,endpoint,agent,cell line,protein,test,method,dose,result
Fc1ccc(N2CCCCC2)c(NC(=S)c2ccncc2)c1,,inhibition,,,HGK,host protein,kinase activity,10 µM,13.2%
C(CNC12CC3CC(CC(C3)C1)C2)NCC12CC3CC(CC(C3)C1)C2,,MIC,Mycobacterium tuberculosis,,,culture,,,18.8 µM
COc1cc(C[C@H](C)[C@H](C)Cc2ccc(O)c(O)c2)ccc1O,CCC 124-2000,MIC80,Candida parapsilosis,,,culture,broth dilution,,62.5 µg/mL
CC(C)c1cc(C(C)C)c(C(=O)Nc2nnc(NCc3cccs3)s2)c(C(C)C)c1,,IC50,Human cytomegalovirus,,Polymerase,target,,,>25 µM